Anti-infective test results gathered from many reports (values: NIAID ChemDB through PubChem).

Shared fields: host cell toxicity; cell line: Huh7.5.1; read by: MTT; read-out: CC50

CCn is the concentration with n% toxicity to the cells. Neighbouring rows are from separate reports.

| structure | result |
|---|---|
| CCC[C@H](NC(=O)[C@@H]1[C@H]2CCC[C@H]2CN1C(=O)[C@@H](NC(=O)[C@@H](NC(=O)c1cnccn1)C1CCCCC1)C(C)(C)C)C(=O)C(=O)NC1CC1 | >10 µM |
| CC(C)(C)OC(=O)N[C@@H]1CCCCC/C=C\[C@@H]2C[C@@]2(C(=O)NS(=O)(=O)C2CC2)NC(=O)[C@@H]2C[C@@H](OC(=O)N3Cc4cccc(F)c4C3)CN2C1=O | 133.5 µg/mL |
| COC(=O)N[C@H](C(=O)N1CCC[C@H]1c1ncc(-c2ccc(-c3ccc(-c4cnc([C@@H]5CCCN5C(=O)[C@@H](NC(=O)OC)C(C)C)[nH]4)cc3)cc2)[nH]1)C(C)C | >1 µM |
| C[C@H]1[C@H](C)CC[C@]2(C(=O)O)CC[C@]3(C)C(=CC[C@@H]4[C@@]5(C)CC[C@H](O)C(C)(C)[C@@H]5CC[C@]43C)[C@H]12 | >200 µg/mL |
| CC(C)(C)Oc1cccc2nc(N)nc(N)c12 | >10 µM |
| NC(=O)c1nn(Cc2ccccc2NC(=O)c2ccccc2)c2ccccc12 | >10 µM |
| CC1=C(/C=C/C(C)=C/C=C/C(C)=C/C(=O)O)C(C)(C)CCC1 | >30 µM |
| Cc1ccc(C(=O)Nc2cccc(Cn3nc(C(N)=O)c4ccccc43)c2)cc1 | >10 µM |
| CC1(C)CCC(C)(C)c2cc(C3(c4ccc(C(=O)O)cc4)OCCO3)ccc21 | >30 µM |
| NC(=O)c1nn(Cc2cccc(N)c2)c2ccccc12 | >10 µM |
| CC1(C)CCC(C)(C)C2C=C(NC(=O)c3ccc(C(=O)O)cc3)C=CC21 | >30 µM |
| NC(=O)c1nn(Cc2ccccc2NC(=O)C2CC2)c2ccccc12 | >10 µM |
| COc1ccc(-c2ccc3cc(C(=O)O)ccc3c2)cc1C12CC3CC(CC(C3)C1)C2 | 20 µM |
| NC(=O)c1nn(Cc2cccc(NC(=O)c3ccccc3)c2)c2ccccc12 | >10 µM |
| C=C(c1ccc(C(=O)O)cc1)c1cc2c(cc1C)C(C)(C)CCC2(C)C | >30 µM |

For reference, 2 entries again:

| structure | result |
|---|---|
| NC(=O)c1nn(Cc2cccc(N)c2)c2ccccc12 | >10 µM |
| NC(=O)c1nn(Cc2ccccc2NC(=O)C2CC2)c2ccccc12 | >10 µM |